Compound potency records, mixed from different reports. Data source: NIAID ChemDB in PubChem.

Shared fields: tests in culture; organism: Streptococcus pneumoniae; measure: MIC

Conditions beyond the fields shown may differ between rows.

SMILES	strain or isolate	value
CC[C@H]1OC(=O)[C@H](C)C(=O)[C@H](C)[C@@H](O[C@@H]2O[C@H](C)C[C@H](N(C)C)[C@H]2O)[C@@]2(C)C[C@@H](C)C(=NC(C)=O)[C@H](C)[C@@H](OC/C(=N\OCc3ccc(C(N)=O)cc3)CO2)[C@]1(C)O	7701 (erythromycin-resistant-MEF)	0.25 µg/mL
NC1CCN(c2nc3c(cc2F)c(=O)c(C(=O)O)cn3-c2ccc(F)cc2F)C1	J24 (quinolone- penicillin-sensitive)	0.05 µg/mL
CC[C@H]1OC(=O)[C@H](C)C(=O)[C@H](C)[C@@H](O[C@@H]2O[C@H](C)C[C@H](N(C)C)[C@H]2O)[C@@]2(C)C[C@@H](C)C(=NC(C)=O)[C@H](C)[C@@H](OC/C(=N\OCC#Cc3ncccn3)CO2)[C@]1(C)O	7701 (erythromycin-resistant-MEF)	0.5 µg/mL
CN1CCN(c2ccc3c(=O)c(C(=O)O)cn(C4CC4)c3c2)CC1	R6-C11	128 µg/mL
O=C(CC(=O)Nc1ccc(F)cc1)Nc1ccc(F)cc1	STP51 (penicillin-resistant)	>300 µM
CC[C@H]1OC(=O)[C@H](C)C(=O)[C@H](C)[C@@H](O[C@@H]2O[C@H](C)C[C@H](N(C)C)[C@H]2O)[C@@]2(C)C[C@@H](C)C(=NC(C)=O)[C@H](C)C(OC/C(=C\C=C\c3ccc(F)cc3)CO2)[C@]1(C)O	700906 (erythromycin-resistant-ERM)	2 µg/mL
O=C(Nc1cccc(C2=NCCN2)c1)Nc1cccc(C2=NCCN2)c1	STP6301	99 µM
CC[C@H]1OC(=O)[C@H](C)C(=O)[C@H](C)[C@@H](O[C@@H]2O[C@H](C)C[C@H](N(C)C)[C@H]2O)[C@@]2(C)C[C@@H](C)C(=O)[C@H](C)C(OC/C=C/CO2)[C@]1(C)O	700906 (erythromycin-resistant-ERM)	64 µg/mL
O=C(NCCO)NNC(=O)Nc1cc(C(F)(F)F)cc(C(F)(F)F)c1	STP6301	>200 µM
C=C1COC2[C@@H](C)C(=NC(C)=O)[C@H](C)C[C@@](C)(OC1)[C@H](O[C@@H]1O[C@H](C)C[C@H](N(C)C)[C@H]1O)[C@@H](C)C(=O)[C@@H](C)C(=O)O[C@H](CC)[C@@]2(C)O	49619 (erythromycin-susceptible)	0.25 µg/mL
C=C1COC2[C@@H](C)C(=NC(C)=O)[C@H](C)C[C@@](C)(OC1)[C@H](O[C@@H]1O[C@H](C)C[C@H](N(C)C)[C@H]1O)[C@@H](C)C(=O)[C@@H](C)C(=O)O[C@H](CC)[C@@]2(C)O	7701 (erythromycin-resistant-MEF)	0.5 µg/mL
O=C(CCC(=O)Nc1cc(C(F)(F)F)cc(C(F)(F)F)c1)Nc1cc(C(F)(F)F)cc(C(F)(F)F)c1	STP51 (penicillin-resistant)	>300 µM
O=C(O)NC[C@H]1CC(c2cc(F)c(N3CCN(C(=O)CO)CC3)c(F)c2)=NO1	UC9912	0.5 µg/mL
CC[C@H]1OC(=O)[C@H](C)C(=O)[C@H](C)[C@@H](O[C@@H]2O[C@H](C)C[C@H](N(C)C)[C@H]2O)[C@@]2(C)C[C@@H](C)C(=NC(=O)CN)[C@H](C)C(OC/C(=C\C=C\c3ccccc3)CO2)[C@]1(C)O	700906 (erythromycin-resistant-ERM)	16 µg/mL
C[C@@H]1CN(c2c(F)c(N)c3c(=O)c(C(=O)O)cn(C4CC4)c3c2F)C[C@H](C)N1	J24 (quinolone- penicillin-sensitive)	0.1 µg/mL
CC[C@H]1OC(=O)[C@H](C)C(=O)[C@H](C)[C@@H](O[C@@H]2O[C@H](C)C[C@H](N(C)C)[C@H]2O)[C@@]2(C)C[C@@H](C)C(=NC(C)=O)[C@H](C)C(OC/C(=N\OCc3ccccc3)CO2)[C@]1(C)O	7701 (erythromycin-resistant-MEF)	0.25 µg/mL
CC[C@H]1OC(=O)[C@H](C)C(=O)[C@H](C)[C@@H](O[C@@H]2O[C@H](C)C[C@H](N(C)C)[C@H]2O)[C@@]2(C)C[C@@H](C)C(=NC(C)=O)[C@H](C)C(OC/C(=C\C=C\c3ccc([N+](=O)[O-])cc3)CO2)[C@]1(C)O	7701 (erythromycin-resistant-MEF)	0.5 µg/mL
CC[C@H]1OC(=O)[C@H](C)C(=O)[C@H](C)[C@@H](O[C@@H]2O[C@H](C)C[C@H](N(C)C)[C@H]2O)[C@@]2(C)C[C@@H](C)C(=NC(C)=O)[C@H](C)[C@@H](OC/C(=N\Oc3ccc(-c4nccs4)nc3)CO2)[C@]1(C)O	7701 (erythromycin-resistant-MEF)	<0.06 µg/mL
O=C(O)NC[C@H]1CC(c2ccc(N3CCN(C(=O)CO)CC3)c(F)c2)=NO1	UC9912	1 µg/mL
CC[C@H]1OC(=O)[C@H](C)C(=O)[C@H](C)[C@@H](O[C@@H]2O[C@H](C)C[C@H](N(C)C)[C@H]2O)[C@@]2(C)C[C@@H](C)C(=NC(C)=O)[C@H](C)[C@@H](OC/C(=N\Oc3ccccc3)CO2)[C@]1(C)O	7701 (erythromycin-resistant-MEF)	0.25 µg/mL
NC1CCN(c2ccc3c(=O)c(C(=O)O)cn(C4CC4)c3c2Cl)C1	R6-G8	0.25 µg/mL
CC(=O)NC[C@H]1CN(c2ccc3c(c2)OCc2nccn2-3)C(=O)O1	13	0.125 µg/mL
CCC(=O)N=C1[C@H](C)C[C@@]2(C)OC/C(=C/C=C/c3ccccc3)COC([C@H]1C)[C@](C)(O)[C@@H](CC)OC(=O)[C@H](C)C(=O)[C@H](C)[C@H]2O[C@@H]1O[C@H](C)C[C@H](N(C)C)[C@H]1O	49619 (erythromycin-susceptible)	0.125 µg/mL
O=C(O)NC[C@H]1CC(c2ccc(-n3ccnc3)c(F)c2)=NO1	UC9912	1 µg/mL
CC[C@H]1OC(=O)[C@H](C)C(=O)[C@H](C)[C@@H](O[C@@H]2O[C@H](C)C[C@H](N(C)C)[C@H]2O)[C@@]2(C)C[C@@H](C)C(=NC(C)=O)[C@H](C)C(OC/C(=C\C#Cc3cccnc3)CO2)[C@]1(C)O	700906 (erythromycin-resistant-ERM)	0.2 µg/mL
O=C(NC[C@H]1CN(c2ccc(C3CCS(=O)(=O)CC3)c(F)c2)C(=O)O1)C1CC1	UC9912	2 µg/mL
CN1CCN(c2cc3c(cc2F)c(=O)c(C(=O)O)cn3C2CC2)CC1	R6-G8	1 µg/mL
CC[C@H]1OC(=O)[C@H](C)C(=O)[C@H](C)[C@@H](O[C@@H]2O[C@H](C)C[C@H](N(C)C)[C@H]2O)[C@](C)(OC)C[C@@H](C)C(=O)[C@H](C)[C@H]2N(CCCCn3cnc(-c4cccnc4)c3)C(=O)O[C@]12C	700906 (erythromycin-resistant-ERM)	0.25 µg/mL
O=C(O)c1cn(C2CC2)c2cc(N3CCNCC3)ccc2c1=O	R6-C11	32 µg/mL
COC(=O)N1CC=C(c2ccc(C3=NO[C@H](CNC(=O)O)C3)cc2)CC1	UC9912	>16 µg/mL
CC(=O)NC[C@H]1CN(c2ccc(C3CCS(=O)(=O)CC3)c(F)c2)C(=O)O1	UC9912	0.25 µg/mL

Repeating the first 5 entries:

SMILES,strain or isolate,value
CC[C@H]1OC(=O)[C@H](C)C(=O)[C@H](C)[C@@H](O[C@@H]2O[C@H](C)C[C@H](N(C)C)[C@H]2O)[C@@]2(C)C[C@@H](C)C(=NC(C)=O)[C@H](C)[C@@H](OC/C(=N\OCc3ccc(C(N)=O)cc3)CO2)[C@]1(C)O,7701 (erythromycin-resistant-MEF),0.25 µg/mL
NC1CCN(c2nc3c(cc2F)c(=O)c(C(=O)O)cn3-c2ccc(F)cc2F)C1,J24 (quinolone- penicillin-sensitive),0.05 µg/mL
CC[C@H]1OC(=O)[C@H](C)C(=O)[C@H](C)[C@@H](O[C@@H]2O[C@H](C)C[C@H](N(C)C)[C@H]2O)[C@@]2(C)C[C@@H](C)C(=NC(C)=O)[C@H](C)[C@@H](OC/C(=N\OCC#Cc3ncccn3)CO2)[C@]1(C)O,7701 (erythromycin-resistant-MEF),0.5 µg/mL
CN1CCN(c2ccc3c(=O)c(C(=O)O)cn(C4CC4)c3c2)CC1,R6-C11,128 µg/mL
O=C(CC(=O)Nc1ccc(F)cc1)Nc1ccc(F)cc1,STP51 (penicillin-resistant),>300 µM